Legend:
CpOGA [1] = target: T1, CpOGA (Clostridium perfringens, UniProt Q0TR53); experiment: biochemical; format: biochemical
CpOGA [2] = target: T1, CpOGA; experiment: biochemical

Sequences of proteins named here, by UniProt entry; tags and fusion partners are left off. Residues count along the entry.
UniProt Q0TR53, 31-624 limits assumed: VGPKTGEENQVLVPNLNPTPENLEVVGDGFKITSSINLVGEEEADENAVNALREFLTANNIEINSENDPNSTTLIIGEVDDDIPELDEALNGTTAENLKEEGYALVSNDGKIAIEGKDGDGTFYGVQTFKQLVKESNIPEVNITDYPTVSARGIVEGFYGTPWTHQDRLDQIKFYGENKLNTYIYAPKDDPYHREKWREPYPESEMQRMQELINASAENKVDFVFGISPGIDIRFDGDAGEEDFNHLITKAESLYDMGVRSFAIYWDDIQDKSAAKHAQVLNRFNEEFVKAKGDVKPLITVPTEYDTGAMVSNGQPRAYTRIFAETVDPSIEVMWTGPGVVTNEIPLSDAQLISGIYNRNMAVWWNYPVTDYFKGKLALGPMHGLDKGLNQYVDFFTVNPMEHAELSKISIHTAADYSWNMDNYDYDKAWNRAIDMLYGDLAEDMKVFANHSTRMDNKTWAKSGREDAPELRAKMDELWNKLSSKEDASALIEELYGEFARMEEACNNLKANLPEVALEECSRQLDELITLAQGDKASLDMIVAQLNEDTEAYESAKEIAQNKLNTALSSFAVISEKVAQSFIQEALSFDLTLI

**Q.** What does the source list for `CNc1ncnc2nc[nH]c12` [N^6-methyladenine]?
**A.** Ki (CpOGA [1]): 14 ± 1 µM; inhibition mode against CpOGA (CpOGA [1]): compete for binding to the same CpOGA active site; IC50 (CpOGA [2]): 21 ± 4 µM

From article PMC2828546, “Screening-based discovery of drug-like O-GlcNAcase inhibitor scaffolds” (Febs Letters, 2010)
